How the values were obtained:
Burkholderia spp. = test: Growth inhibition of Burkholderia spp.
[1] = tested on: Stenotrophomonas maltophilia; test: Growth inhibition of Stenotrophomonas maltophilia
Enterobacteriacae = test: Growth inhibition of Enterobacteriacae

Substance: LCSYIDV
- inhibition of growth of Burkholderia spp. (Burkholderia spp.): inhibits the growth
- concentration inhibiting P. aeruginosa (P. aeruginosa): sub-μm
- inhibition of growth of P. aeruginosa (P. aeruginosa): inhibits the growth
- concentration displaying antibacterial activity towards P. aeruginosa (P. aeruginosa; HPLC-purified peptide, FIG. 3): 1 nM
- inhibition of growth of Stenotrophomonas maltophilia [1]: inhibits the growth
- inhibition of growth of Enterobacteriacae (Enterobacteriacae): inhibits the growth

— patent US20060258596A1, “Antimicrobial agents” (published 2006)
